In publication PMC4364341, “NBD delivery improves the disease phenotype of the golden retriever model of Duchenne muscular dystrophy” (Skeletal Muscle, 2014):

Tested on: wild type dogs
Assay: Tibiotarsal joint (TTJ) tetanic force/torque, wild type dogs
Assay type: in vivo, dog
Details: n = 3
[1] = NBD group, age 2 months (start of treatment)
[2] = age 6 months, NBD 10 mg/kg IV 3x weekly for 4 months

Sequence: TALDWSWLQTE [NBD, NBD peptide (…) fused to an Antennapedia protein transduction domain]
- Absolute Tetanic Extension Force [1]: 13.46 ± 3.26 N
- Absolute Tetanic Extension Torque [1]: 1.20 ± 0.41 Nm
- Absolute Tetanic Flexion Force [1]: 4.52 ± 1.82 N
- Absolute Tetanic Flexion Torque [1]: 0.42 ± 0.24 Nm
- Body-mass Corrected Tetanic Extension Force [1]: 2.88 ± 1.10 N/kg
- Body-mass Corrected Tetanic Extension Torque [1]: 0.25 ± 0.08 Nm/kg
- Body-mass Corrected Tetanic Flexion Force [1]: 0.90 ± 0.04^2 N/kg
- Body-mass Corrected Tetanic Flexion Torque [1]: 0.08 ± 0.02 Nm/kg
- Absolute Tetanic Extension Force [2]: 42.17 ± 7.46^1 N
- Absolute Tetanic Extension Torque [2]: 6.02 ± 1.38^1 Nm
- Absolute Tetanic Flexion Force [2]: 25.75 ± 2.18^1 N
- Absolute Tetanic Flexion Torque [2]: 3.65 ± 0.43^1 Nm
- Body-mass Corrected Tetanic Extension Force [2]: 2.00 ± 0.22 N/kg
- Body-mass Corrected Tetanic Extension Torque [2]: 0.28 ± 0.04 Nm/kg
- Body-mass Corrected Tetanic Flexion Force [2]: 1.24 ± 0.19 N/kg
- Body-mass Corrected Tetanic Flexion Torque [2]: 0.17 ± 0.02 Nm/kg
